How the values were obtained:
Assay in all cases: cell-based or functional assay
[1] = target: H6tHAtev1S(146-206)L (Photinus pyralis)
[2] = target: Recombinant rat SNAP-25 aa 1-206 fused to a C-terminal His6tag (rat) (UniProt P60881)
[3] = target: H6tHAtev1V(2-94)L (Photinus pyralis) (UniProt P63026)
[4] = target: rat VAMP-2 aa 1-97 fused to an N-terminal thrombin cleavable His6tag (rat) (UniProt P63045)

LC/A1 1-429 fused to a C-terminal 6xHN-tag
EC50 of substrate cleavage, endopeptidase assay, PBS pH 7.4, 1 h 37°C, SDS-PAGE [1]: 0.87 nM

LC/A1 1-429 fused to a C-terminal 6xHN-tag (enzyme)
EC50 of substrate cleavage, endopeptidase assay, PBS pH 7.4, 1 h 37°C, SDS-PAGE [2]: 1.67 nM

LC/B1 1-436 fused to a C-terminal 6xHN-tag (enzyme)
EC50 of substrate cleavage, endopeptidase assay, PBS pH 7.4, 1 h 37°C [3]: 160 nM
EC50 of substrate cleavage, endopeptidase assay, PBS pH 7.4, 1 h 37°C [4]: 60 nM

LC/C 1-436 fused to a C-terminal 6xHN-tag
EC50 of substrate cleavage, endopeptidase assay, PBS pH 7.4, 1 h 37°C, SDS-PAGE [1]: > 3000 nM

LC/C 1-436 fused to a C-terminal 6xHN-tag (enzyme)
EC50 of substrate cleavage, endopeptidase assay, PBS pH 7.4, 1 h 37°C, SDS-PAGE [2]: 2100 nM

LC/D 1-436 fused to a C-terminal 6xHN-tag (enzyme)
EC50 of substrate cleavage, endopeptidase assay, PBS pH 7.4, 1 h 37°C [3]: 1.3 nM
EC50 of substrate cleavage, endopeptidase assay, PBS pH 7.4, 1 h 37°C [4]: 1 nM

LC/E1 1-411 fused to a C-terminal 6xHN-tag
EC50 of substrate cleavage, endopeptidase assay, PBS pH 7.4, 1 h 37°C, SDS-PAGE [1]: 0.17 nM

LC/E1 1-411 fused to a C-terminal 6xHN-tag (enzyme)
EC50 of substrate cleavage, endopeptidase assay, PBS pH 7.4, 1 h 37°C, SDS-PAGE [2]: 0.4 nM

LC/F1 1-428 fused to a C-terminal 6xHN-tag (enzyme)
EC50 of substrate cleavage, endopeptidase assay, PBS pH 7.4, 1 h 37°C [4]: 2 nM

LC/G 1-435 fused to a C-terminal 6xHN-tag (enzyme)
EC50 of substrate cleavage, endopeptidase assay, PBS pH 7.4, 1 h 37°C [3]: > 10000 nM
EC50 of substrate cleavage, endopeptidase assay, PBS pH 7.4, 1 h 37°C [4]: > 10000 nM

LC/T 1-438 fused to a C-terminal 6xHN-tag (enzyme)
EC50 of substrate cleavage, endopeptidase assay, PBS pH 7.4, 1 h 37°C [4]: 10 nM

— patent publication EP3529371B1
